Pooled drug test results. Numbers come from NIAID ChemDB, via PubChem.

Common to all: growth or infection tests; species: Aspergillus niger; read-out: zone

Zones are inhibition diameters on agar. An empty or dashed field is not shown. Rows are shuffled and stem from different studies.

smiles,method,tested at,strain or isolate,result
CCOC(=O)Cn1c(C(F)(F)F)nc2cc([N+](=O)[O-])ccc21,-,500 µg/mL,MTCC 1344,550 mm
COc1ccc(C2CC(=O)C3=C(C2)OC2=C(C(=O)CC(c4ccc(OC)c(OC)c4)C2)C3c2ccc(C3C4=C(CC(c5ccc(OC)c(OC)c5)CC4=O)OC4=C3C(=O)CC(c3ccc(OC)c(OC)c3)C4)cc2)cc1OC,agar diffusion,40 µg/disc,ATCC 10949,0 mm
Cc1n[nH]c(=S)n1N=C/C=C/c1c(-c2ccc(F)cc2)c2ccccc2n1C(C)C,-,200 µg/mL,-,12 mm
COc1ccc2[nH]c3nc(-n4nc(-c5ccccc5)c5ccccc5c4=O)c4ccccc4c3c2c1,agar diffusion / visual reading,3.125 µg/mL,MTCC 281,8 mm
CC1(C)CC(=O)C2=C(C1)OC1=C(C(=O)CC(C)(C)C1)C2c1ccc(C2C3=C(CC(C)(C)CC3=O)OC3=C2C(=O)CC(C)(C)C3)cc1,agar diffusion,20 µg/mL,ATCC 10949,0 mm
O=C(NN=Cc1ccc(F)cc1)c1snnc1C(F)(F)F,agar diffusion / agar,150 µg/mL,MTCC 1344,0 mm
OC(Cn1cncn1)(Cn1cncn1)c1ccc(F)cc1F,agar diffusion / visual reading,3.125 µg/mL,MTCC 281,14 mm
OC(Cn1cncn1)(Cn1cncn1)c1ccc(F)cc1F,-,500 µg/mL,MTCC 1881,30 mm
CCN(CC)CCSc1nc(Cc2ccc(Cl)cc2)c(C)c(=O)[nH]1,agar diffusion / agar,200 µg/disc,NRRL 599,13 mm
Cc1ccc(S(=O)(=O)CNc2oc3[nH]c(=O)[nH]c(=O)c3c2-c2ccsc2C=O)cc1,agar diffusion / agar,50 µg/mL,-,0 mm
CCc1c(Cc2ccc(OC)c(OC)c2)nc(SCCN2CCCCC2)[nH]c1=O,agar diffusion / agar,200 µg/disc,NRRL 599,25 mm
CCOC(=O)Cn1c(C(F)(F)F)nc2ccc([N+](=O)[O-])cc21,-,500 µg/mL,MTCC 1344,500 mm
CC(C)N1CCN(c2nc(Nc3ccc(C#N)c(C(F)(F)F)c3)nc(Oc3ccnc4ccccc34)n2)CC1,agar,100 µg/mL,MTCC 282,<10 mm
Clc1ccc(C2=NNc3c4ccccc4c4c5cc(Cl)ccc5nc-4n3C2)cc1,agar diffusion / visual reading,12.5 µg/mL,MTCC 281,11 mm
COc1ccc(C2CC(=O)C3=C(C2)OC2=C(C(=O)CC(c4ccc(OC)c(OC)c4)C2)C3c2cccc(C3C4=C(CC(c5ccc(OC)c(OC)c5)CC4=O)OC4=C3C(=O)CC(c3ccc(OC)c(OC)c3)C4)c2)cc1OC,agar diffusion,140 µg/disc,ATCC 10949,7 mm
CSC1=NC(c2ccccc2[N+](=O)[O-])C(C#N)=C(N)N1,agar diffusion,25 µg/mL,MTCC 282,13 mm
O=[N+]([O-])c1ccc2c(c1)nc(C(F)(F)F)n2CCCCCl,-,500 µg/mL,MTCC 1344,450 mm
CSC1=NC(c2cccc([N+](=O)[O-])c2)C(C#N)=C(N)N1,agar diffusion,50 µg/mL,MTCC 282,14 mm
Cc1ccc(S(=O)(=O)CNc2oc3[nH]c(=O)[nH]c(=O)c3c2-c2ccc(Cl)cc2)cc1,agar diffusion / agar,50 µg/mL,-,2 mm
Cc1ccc2nc3n4c(c5ccccc5c-3c2c1)NN=C(c1ccccc1)C4,agar diffusion / visual reading,6.25 µg/mL,MTCC 281,8 mm
CC(=NNC(=O)c1snnc1C(F)(F)F)c1ccc(Br)cc1Br,agar diffusion / agar,150 µg/mL,MTCC 1344,0 mm
CC1=C(Cl)C(O)=CC(=O)C12Oc1cc(O)c(Cl)c(C)c1C2=O,agar diffusion,25 µg/mL,MTCC 282,21 mm
COc1ccc2[nH]c3nc(-n4[nH]c(=O)c5ccccc5c4=O)c4ccccc4c3c2c1,agar diffusion / visual reading,3.125 µg/mL,MTCC 281,13 mm
Cc1ccc(S(=O)(=O)CNc2oc3[nH]c(=O)[nH]c(=O)c3c2-c2ccc(F)cc2)cc1,agar diffusion / agar,50 µg/mL,-,2 mm
CSC1=NC(c2ccccc2Cl)C(C#N)=C(N)N1,agar diffusion,25 µg/mL,MTCC 282,13 mm
CN1CCN(c2nc(Nc3ccc(C#N)c(C(F)(F)F)c3)nc(Oc3ccnc4ccccc34)n2)CC1,agar,100 µg/mL,MTCC 282,<10 mm
Cc1ccc2[nH]c3c(c2c1)c1ccccc1c1nnc(C(C)(C)C)n13,agar diffusion / visual reading,12.5 µg/mL,MTCC 281,8 mm
N#Cc1ccc(Nc2nc(Oc3ccnc4ccccc34)nc(N3CCC(Cc4ccccc4)CC3)n2)cc1C(F)(F)F,agar,100 µg/mL,MTCC 282,<10 mm
COc1ccc2nc3n4c(c5ccccc5c-3c2c1)NN=C(c1ccc(Cl)cc1)C4,agar diffusion / visual reading,25 µg/mL,MTCC 281,8 mm
CCN1CCN(c2nc(Nc3ccc(C#N)c(C(F)(F)F)c3)nc(Oc3ccnc4ccccc34)n2)CC1,agar,100 µg/mL,MTCC 282,<10 mm
CC(=NNC(=O)c1snnc1C(F)(F)F)c1ccccn1,agar diffusion / agar,100 µg/mL,MTCC 1344,0 mm
COc1ccc2[nH]c3nc(NNC(=O)c4ccccc4C(=O)O)c4ccccc4c3c2c1,agar diffusion / visual reading,6.25 µg/mL,MTCC 281,6 mm
CCn1c(C(F)(F)F)nc2ccc([N+](=O)[O-])cc21,-,500 µg/mL,MTCC 1344,800 mm
CCc1c(Cc2ccc(OC)c(OC)c2)nc(SCCN(CC)CC)[nH]c1=O,agar diffusion / agar,200 µg/disc,NRRL 599,25 mm
O=C(NN=Cc1ccc(Br)cc1)c1snnc1C(F)(F)F,agar diffusion / agar,100 µg/mL,MTCC 1344,0 mm
Clc1ccccc1C(c1ccccc1)(c1ccccc1)n1ccnc1,agar diffusion / agar,200 µg/disc,NRRL 599,40 mm
CN(C)C=O,-,100 µg/mL,-,6 mm
O=[N+]([O-])c1ccc2c(c1)nc(C(F)(F)F)n2CCCCl,-,500 µg/mL,MTCC 1344,300 mm

A second listing of 5 rows from above:

smiles,method,tested at,strain or isolate,result
COc1ccc(C2CC(=O)C3=C(C2)OC2=C(C(=O)CC(c4ccc(OC)c(OC)c4)C2)C3c2cccc(C3C4=C(CC(c5ccc(OC)c(OC)c5)CC4=O)OC4=C3C(=O)CC(c3ccc(OC)c(OC)c3)C4)c2)cc1OC,agar diffusion,140 µg/disc,ATCC 10949,7 mm
O=[N+]([O-])c1ccc2c(c1)nc(C(F)(F)F)n2CCCCl,-,500 µg/mL,MTCC 1344,300 mm
CSC1=NC(c2ccccc2Cl)C(C#N)=C(N)N1,agar diffusion,25 µg/mL,MTCC 282,13 mm
CCOC(=O)Cn1c(C(F)(F)F)nc2cc([N+](=O)[O-])ccc21,-,500 µg/mL,MTCC 1344,550 mm
Cc1ccc2[nH]c3c(c2c1)c1ccccc1c1nnc(C(C)(C)C)n13,agar diffusion / visual reading,12.5 µg/mL,MTCC 281,8 mm